One purity is given for all peptides; the source may state it once.
experiment: general procedure: Fmoc solid-phase peptide synthesis; Fmoc-Lys(Boc) Wang resin (0.44 mmol/g); HBTU/HOBt, HATU/HOAt or PyOxim with DIPEA; details: whole synthesis, 214 nm

Row | Substance | final HPLC purity
1 | Ac-Glu-Met-Arg-Leu-Ser-Lys(Ac)-Phe-Phe-Arg-Asp-Phe-Ile-Leu-Gln-Arg-Lys(Ac)-Lys(Ac)-OH | > 95%
2 | H-Glu-Met-Arg-Leu-Ser-Lys-Phe-Phe-Arg-Asp-Phe-Ile-Leu-Gln-Arg-Lys-Lys-OH | > 95%
3 | H-hβGlu-Met-Arg-Leu-Ser-Lys-Phe-Phe-Arg-Asp-Phe-Ile-Leu-Gln-Arg-Lys-Lys-OH | > 95%
4 | H-AMALSKFFRDFILQRKK-OH | > 95%
5 | H-Tyr(SO3H)-Met-Arg-Leu-Ser-Lys-Phe-Phe-Arg-Asp-Phe-Ile-Leu-Gln-Arg-Lys-Lys-OH | > 95%
6 | Ac-Glu-Met-Arg-Leu-Ser-Lys-Phe-Phe-Arg-Asp-Phe-Ile-Leu-Gln-Arg-Lys-Lys-OH | > 95%

Source: paper PMC9785397 (Microorganisms, 2022)
